The values that follow come from patent publication US10207006B2, “Oligosaccharide conjugates and methods of use” (priority 2013, dated 2019).

SMILES strings stand for the structures.

The series concerns anti-Brucella antibodies in bovine sera. The series is classed as binding, cattle.

For `CO[C@H]1OC(C)[C@@H](NC=O)C(O)C1O[C@H]1OC(C)[C@@H](NC=O)C(O[C@H]2OC(C)[C@@H](NC=O)C(O)C2O[C@H](C=O)OC(C)[C@H](C=O)NC=O)C1O` (stereo partly shown) [oxiTSM], the “DSn % (diagnostic sensitivity at optimal Youden Index)” value is 73.33%; the “DSp % (diagnostic specificity at optimal Youden Index)” value is recorded as 92.65%; the “Optimal Youden Index (YI = DSn + DSp-1), YI Estimate” value is 0.6670; the “ROC - Area Under Curve, AUC” value worked out at 0.8948.
